Results reported in article PMC3124085 (Structure (London, England : 1993), 2010).

The chains behind the UniProt entries cited, without tags or fusion partners. Residues count along the entry.
UniProt Q99816, 2-145: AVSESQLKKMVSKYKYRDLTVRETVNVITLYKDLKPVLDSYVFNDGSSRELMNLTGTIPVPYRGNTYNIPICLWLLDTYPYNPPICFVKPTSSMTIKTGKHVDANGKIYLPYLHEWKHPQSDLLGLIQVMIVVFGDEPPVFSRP

Target: human TSG101 UEV domain (UEV-WT) (Homo sapiens, UniProt Q99816)
Conditions: ITC200, 28°C, 20mM sodium phosphate pH 7.20, 150mM NaCl, 5% glycerol, cell 300-600 μM UEV, peptide 4 mM or 6.5 mM, 18 injections of 2.1 μl, one-site model, SD of three measurements, N.B. = no binding

**Q.** For LAPSDPPYP [Vps27-PSDP], which “Kd (equilibrium dissociation constant, ITC)” value is on record?
**A.** The value was “N.B”.
